Anti-infective test results gathered from many reports (values: NIAID ChemDB through PubChem).

All rows: tests in culture; organism: HIV-2; cell line: PBMC; read-out: EC50

An empty or dashed field is not shown. Neighbouring rows are from separate reports. ECn is the concentration giving n% inhibition of infection, replication or growth.

{"SMILES": "O=c1[nH]cnc2c1ncn2[C@H]1CC[C@@H](CO)O1", "strain or isolate": "ROD", "result": "0.5 µM"}
{"SMILES": "N#CC[C@H](C1CCCC1)n1cc(-c2ncnc3[nH]ccc23)cn1", "read by": "p24 / ELISA", "result": "0.02 µM"}
{"SMILES": "CC(C)=CCN1Cc2cc(Cl)cc3[nH]c(=S)n(c23)C[C@@H]1C", "strain or isolate": "ROD", "result": ">6.25 µM"}
{"SMILES": "Cc1cn([C@H]2C=C[C@@H](COC(=O)CNC(=O)C(=O)/C=C(\\O)c3cc(OCc4ccccc4)cc(OCc4ccccc4)c3)O2)c(=O)[nH]c1=O", "strain or isolate": "D194", "read by": "RT activity", "result": "4.2 µM"}
{"SMILES": "CCc1nc2sccn2c1C(=O)c1ccco1", "strain or isolate": "ROD", "read by": "RT activity", "result": ">100 µM"}
{"SMILES": "Cc1ccnc2c1NC(=O)c1cccnc1N2C1CC1", "strain or isolate": "ROD", "result": ">62.5 µM"}
{"SMILES": "Nc1nc(=O)n([C@@H]2CS[C@H](CO)O2)cc1F", "strain or isolate": "ROD-2", "read by": "RT activity", "result": "0.0007 µM"}
{"SMILES": "Cc1cn([C@H]2C[C@H](N=[N+]=[N-])[C@@H](CO)O2)c(=O)[nH]c1=O", "strain or isolate": "2298", "read by": "ELISA", "result": "0.014 µM"}
{"SMILES": "CCCCC#CCSc1ccccc1OC(C)=O", "strain or isolate": "CDC310319", "read by": "p24", "result": ">100 µM"}
{"SMILES": "CCOCn1c([Se]c2ccccc2)cc(=O)[nH]c1=O", "strain or isolate": "ROD", "read by": "RT activity", "result": "14.8 µM"}
{"SMILES": "O=C(O)C(=O)CC(=O)c1cc(OCc2ccccc2)cc(OCc2ccccc2)c1", "strain or isolate": "D194", "read by": "RT activity", "result": "8.6 µM"}
{"SMILES": "Cc1cn([C@H]2C[C@H](N=[N+]=[N-])[C@@H](CO)O2)c(=O)[nH]c1=O", "strain or isolate": "ROD", "result": "0.003 µM"}
{"SMILES": "CCc1nc2ccccn2c1C(=O)c1cccs1", "strain or isolate": "ROD", "read by": "RT activity", "result": ">100 µM"}
{"SMILES": "Cc1cn([C@H]2C=C[C@@H](COC(=O)CNC(=O)C(=O)/C=C(\\O)c3cccn3Cc3ccc(F)cc3)O2)c(=O)[nH]c1=O", "strain or isolate": "D194", "read by": "RT activity", "result": "2.9 µM"}
{"SMILES": "CCOCn1c([Se]c2ccccc2)c(C)c(=O)[nH]c1=O", "strain or isolate": "ROD", "read by": "RT activity", "result": "27.1 µM"}
{"SMILES": "CC(C)Nc1cccnc1N1CCN(C(=O)c2cc3cc(NS(C)(=O)=O)ccc3[nH]2)CC1", "strain or isolate": "ROD", "read by": "RT activity", "result": ">62.5 µM"}
{"SMILES": "CCc1nc2ccccn2c1C(=O)c1ccco1", "strain or isolate": "194", "read by": "RT activity", "result": ">100 µM"}
{"SMILES": "Cc1cn([C@H]2C[C@H](N=[N+]=[N-])[C@@H](CO)O2)c(=O)[nH]c1=O", "strain or isolate": "CBL-20", "read by": "cytopathic effect / XTT", "setting": "clinical isolate", "result": "0.002 µM"}
{"SMILES": "CC(C)(C)NC(=O)[C@@H]1C[C@@H]2CCCC[C@@H]2CN1C[C@@H](O)[C@H](Cc1ccccc1)NC(=O)[C@H](CC(N)=O)NC(=O)c1ccc2ccccc2n1", "strain or isolate": "ROD", "read by": "RT activity", "result": "0.01 µM"}
{"SMILES": "Cc1cn([C@H]2C[C@H](N=[N+]=[N-])[C@@H](CO)O2)c(=O)nc1N", "strain or isolate": "ROD", "read by": "RT activity", "result": "0.016 µM"}
{"SMILES": "Cc1cn([C@H]2C[C@H](N=[N+]=[N-])[C@@H](CO)O2)c(=O)[nH]c1=O", "strain or isolate": "D194", "read by": "p24", "result": "0.01 µM"}

Repeating the first 3 entries:

SMILES | strain or isolate | read by | setting | result
O=c1[nH]cnc2c1ncn2[C@H]1CC[C@@H](CO)O1 | ROD | - | - | 0.5 µM
N#CC[C@H](C1CCCC1)n1cc(-c2ncnc3[nH]ccc23)cn1 | - | p24 / ELISA | - | 0.02 µM
CC(C)=CCN1Cc2cc(Cl)cc3[nH]c(=S)n(c23)C[C@@H]1C | ROD | - | - | >6.25 µM